Values of other authors, collected in publication PMC9738830.
pKd: −log10 of the molar value. Where two headings read alike, the source gives them in different places.

Assays:
[1] = molecular target: Amyloid β oligomers (Homo sapiens) (UniProt P05067)
[2] = molecular target: Amyloid β oligomers (Homo sapiens) (UniProt P05067); remark: listed apart in the source

Row | Substance | pKd [1] | pKd [2]
1 | PrP (from UniProt P04925) | 7.77 | –
2 | PrPc23–111 23-111 (from UniProt P04925) | – | 7.77
